{"source": "patent US6261814A", "about": "“Carboxylic acid reductase, and methods of using same” (University of Iowa Research Foundation, priority 1998, dated 2001)", "test_system": "Nocardia sp. NRRL 5646", "assay": "Growing cell transformation of vanillic acid (HPLC quantification)", "assay_type": "cell-based", "settings": "growing culture, 48 hours"}
{"smiles": "COc1cc(C(=O)O)ccc1O", "note": "[vanillic acid, 4-hydroxy-3-methoxybenzoic acid]", "values": [{"measurement": "substrate decarboxylated to give guaiacol", "value": 69, "unit": "%"}, {"measurement": "substrate reduced to vanillyl alcohol as the final product", "value": 11, "unit": "%"}, {"measurement": "vanillic acid metabolized", "value": "almost all"}]}
